# Several values for one entry are separate records, joined by “and”; a condition that tells them apart may be missing. Equal entries are not always repeated.
# B1: GST-hSV2C 455–579 F563L (domain or fragment)
# chain: PDVIKPLQSDEYALLTRNVERDKYANFTINFTMENQIHTGMEYDNGRFIGVKFKSVTFKDSVFKSCTFEDVTSVNTYFKNCTFIDTVFDNTDFEPYKFIDSEFKNCSFLHNKTGCQITFDDDYSA
# Biological target: HC-fragment of BoNT/A fused to a C-terminal Streptag (HCAS) (Clostridium botulinum, UniProt P0DPI1 871-1296)
binder,measurement,value
B1,Kd,680 nM and 660 nM
same,koff,0.13 s⁻¹
same,kon,190000 M⁻¹ s⁻¹

# Source: paper PMC4885069, “Botulinum Neurotoxin Serotype A Recognizes Its Protein Receptor SV2 by a Different Mechanism than Botulinum Neurotoxin B Synaptotagmin” (Toxins, 2016)
